PubChem BioAssay AID624099 | ICCB-Longwood – 2012

Purpose: 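Human genes that papillomavirus E2 requires to repress the HPV18 LCR promoter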 (primary screen)
Cell system: human C33A cervical carcinoma cells (HPV-negative) stably expressing BPV1 E2 and an HPV18 LCR luciferase reporter
Reagent: siRNA pool against human genes, 40 nM
Time to read-out: 72 h
Measurement: 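HPV18 LCR reporter light per well, converted to plate-wise z-scores that exclude control wells, and averaged over triplicate plates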
Scale: mean z-score and z-score: higher = stronger reporter signal, weaker E2 silencing
Rule for the call: 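Hit if mean z-score reaches 2 and two or more of three replicate z-scores also reach 2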
Here is an unselected part of about 21,000 deposited reagents. In the full data, 497 (2.4%) got an active call. 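Higher z means weaker E2 silencing; only reporter increases were scored, and knock-downs that hurt cell survival may mask genuine repressor factors.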 Reagents against one gene are numbered here.

gene symbol,reagent no.,mean z-score,"z-score, replicate A","z-score, replicate B","z-score, replicate C",Outcome
ASPSCR1,1,-0.73,-0.9,-0.63,-0.67,inactive
UNC13C,1,0.74,0.06,1.11,1.04,inactive
TTLL6,1,-0.35,-0.56,-0.46,-0.01,inactive
MRPL13,1,-0.63,-0.78,-0.46,-0.64,inactive
KPNA7,1,0.27,0.67,-0.06,0.2,inactive
PCDH15,1,0.77,0.81,0.45,1.05,inactive
PCDH15,2,-0.02,-0.04,0.09,-0.09,inactive
ZNF593,1,-0.36,-0.21,0,-0.87,inactive
FADS6,1,0.9,3.23,-0.14,-0.4,inactive
ANAPC10,1,0.94,0.61,1.15,1.07,inactive
TXNDC2,1,-0.51,-0.54,-0.45,-0.53,inactive
IGSF8,1,0.41,0.36,0.42,0.45,inactive
CERS1,1,-0.09,-0.13,-0.49,0.35,inactive
YJEFN3,1,0.61,0.43,0.66,0.74,inactive
BTBD1,1,1.83,1.82,1.79,1.87,inactive
RIIAD1,1,0.34,0.33,0.28,0.39,inactive
MTX2,1,0.56,0.69,0.38,0.62,inactive
LINC01949,1,-0.53,-0.64,-0.4,-0.53,inactive
PDF,1,0.32,0.45,0.42,0.08,inactive
UBE2D4,1,0.56,0.59,0.38,0.72,inactive
ARL5B,1,0.66,0.36,1.07,0.54,inactive

Limited to “z-score, replicate B”, for 7 of the entries above:
KPNA7: -0.06
PCDH15 #1: 0.45
PCDH15 #2: 0.09
ZNF593: 0
FADS6: -0.14
ANAPC10: 1.15
TXNDC2: -0.45

Further results follow.
gene symbol,reagent no.,mean z-score,"z-score, replicate A","z-score, replicate B","z-score, replicate C",Outcome
APOH,1,0.48,0.28,0.78,0.39,inactive
CEP112,1,0.2,0.54,0.19,-0.12,inactive
DKC1,1,0.67,0.81,0.86,0.33,inactive
WEE2-AS1,1,-0.12,-0.09,-0.13,-0.12,inactive
ZNF746,1,-0.86,-1.2,-0.76,-0.6,inactive
COQ3,1,1.63,1.79,1.73,1.37,inactive
ACSM4,1,0.1,0.63,-0.32,-0.02,inactive
ZGPAT,1,-0.95,-1.32,-0.46,-1.09,inactive
ZSCAN22,1,0.34,0.51,0.41,0.1,inactive
NEFH,1,-0.43,-0.58,-0.49,-0.22,inactive
MRGPRX2,1,0.57,0.14,0.83,0.73,inactive
PTMA,1,0.34,0.48,0.12,0.43,inactive
TMEM120A,1,-0.74,-0.8,-0.77,-0.66,inactive
DLC1,1,-0.03,-0.16,0.21,-0.14,inactive
XPNPEP2,1,0.92,0.64,0.86,1.25,inactive
LOC401052 (retired record),1,0.44,-0.02,0.57,0.76,inactive
RAB36,1,-1.17,-1.23,-1.26,-1.03,inactive
LCE3A,1,0.44,0.42,0.3,0.61,inactive
